A word on the Ki: it is a dissociation constant, usually derived from enzyme kinetics or from competition with a known ligand.

By UniProt entry, the sequences of proteins in these tests, tags left out. Residues count along the entry.
UniProt P0DPI0, 2-448 limits assumed: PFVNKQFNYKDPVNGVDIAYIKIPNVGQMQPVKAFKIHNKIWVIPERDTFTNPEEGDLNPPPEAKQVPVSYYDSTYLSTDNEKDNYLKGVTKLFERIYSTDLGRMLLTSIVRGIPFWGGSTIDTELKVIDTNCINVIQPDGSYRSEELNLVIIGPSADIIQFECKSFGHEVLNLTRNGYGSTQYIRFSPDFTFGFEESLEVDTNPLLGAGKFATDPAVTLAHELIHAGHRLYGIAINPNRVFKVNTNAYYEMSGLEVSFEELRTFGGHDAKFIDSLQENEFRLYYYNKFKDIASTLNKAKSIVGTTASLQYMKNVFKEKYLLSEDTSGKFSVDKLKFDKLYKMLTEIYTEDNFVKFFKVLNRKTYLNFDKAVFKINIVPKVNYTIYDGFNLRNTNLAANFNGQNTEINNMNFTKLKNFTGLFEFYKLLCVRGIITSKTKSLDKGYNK

A short description of assay [1]: Effect on BoNT/A-induced half paralysis in mouse phrenic nerve- hemidiaphragm assessed as half-paralysis time at 15 uM pretreated for 2 hrs (reference value: 159 +/- 22.1 min).
The target in assay [2] is T1, Botulinum neurotoxin type A (Clostridium botulinum, UniProt P0DPI0). Kind of assay: Inhibition of Clostridium botulinum BoNT/A light chain 448 residue preincubated for 30 mins by FRET assay.
In assay [3] the target is T1, Botulinum neurotoxin type A. Put plainly: Inhibition of Clostridium botulinum truncated-BoNT/A light chain 424 residue preincubated for 30 mins by FRET assay.
The target is the same in assay [4]. Put plainly: Inhibition of Clostridium botulinum BoNT/A light chain 448 residue coincubated with TCEP for 30 mins and TCEP absent during reaction by FRET assay.
For assay [5] the target is unchanged. Kind of assay: Inhibition of Clostridium botulinum BoNT/A light chain 448 residue coincubated with TCEP for 60 mins and TCEP absent during reaction by FRET assay.
The target is the same in assay [6]. Kind of assay: Inhibition of Clostridium botulinum BoNT/A light chain 448 residue coincubated with TCEP for 30 mins and TCEP present during reaction by FRET assay.
Assay [7] has the same target. Kind of assay: Inhibition of Clostridium botulinum BoNT/A light chain 448 residue coincubated with TCEP for 60 mins and TCEP present during reaction by FRET assay.

Take `CC(C)C[C@H](NC(=O)[C@@H]1CSSC[C@H](N)C(=O)NCC[C@H](N)C(=O)N[C@@H](CCCNC(=N)N)C(=O)N[C@@H](Cc2cc3ccccc3[nH]2)C(=O)N[C@@H]([C@H](C)O)C(=O)N[C@@H](CCCCN)C(=O)N1)C(N)=O` [listing 1 of 2 here]: the Time in assay [1] came to 167 min.

In assay [2], `C[C@H](O)[C@@H]1NC(=O)[C@H](Cc2cc3ccccc3[nH]2)NC(=O)[C@H](CCCNC(=N)N)NC(=O)[C@@H](N)CCNC(=O)[C@@H](N)CSSC[C@@H](C(N)=O)NC(=O)[C@H](CCCCN)NC1=O` showed a Ki of 468 nM.

For the molecule `CC(C)C[C@H](NC(=O)[C@@H]1CSSC[C@H](N)C(=O)NCC[C@H](N)C(=O)N[C@@H](CCCNC(=N)N)C(=O)N[C@@H](Cc2cc3ccccc3[nH]2)C(=O)N[C@@H]([C@H](C)O)C(=O)N[C@@H](CCCCN)C(=O)N1)C(N)=O` [listing 2 of 2 here], the Ki in assay [2] worked out at 12.3 nM; in assay [3], 39.2 nM; in assay [4], 26.4 nM; in assay [5] it was 46 nM; in assay [6], 157 nM; in assay [7] it was 162 nM.

The values above are taken from ChEMBL document CHEMBL3627621, “Interactions of a potent cyclic peptide inhibitor with the light chain of botulinum neurotoxin A: Insights from X-ray crystallography” (2015).
